Data as given in patent publication US20070099199A1.
Several values for one entry are separate records, joined by “and”; a condition that tells them apart may be missing. Identical values can stand only once.

B1: GST-ZO-2 PDZ domain 1 (protein)
chain: MSPILGYWKIKGLVQPTRLLLEYLEEKYEEHLYERDEGDKWRNKKFELGLEFPNLPYYIDGDVKLTQSMAIIRYIADKHNMLGGCPKERAEISMLEGAVLDIRYGVSRIAYSKDFETLKVDFLSKLPEMLKMFEDRLCHKTYLNGDHVTHPDFMLYDALDVVLYMDPMCLDAFPKLVCFKKRIEAIPQIDKYLKSSKYIAWPLQGWQATFGGGDHPPKSDLIEGRLIWEQYTVTLQKDSKRGFGIAVSGGRDNPHFENGETSIVISDVLPGGPADGLLQENDRVVMVNGTPMEDVLHSFAVQQLRKSGKVAAIVVKRPRKV
B2: GST-Syntrophin gamma 1 PDZ domain 1 (protein)
chain: MSPILGYWKIKGLVQPTRLLLEYLEEKYEEHLYERDEGDKWRNKKFELGLEFPNLPYYIDGDVKLTQSMAIIRYIADKHNMLGGCPKERAEISMLEGAVLDIRYGVSRIAYSKDFETLKVDFLSKLPEMLKMFEDRLCHKTYLNGDHVTHPDFMLYDALDVVLYMDPMCLDAFPKLVCFKKRIEAIPQIDKYLKSSKYIAWPLQGWQATFGGGDHPPKSDLIEGREPFYSGERTVTIRRQTVGGFGLSIKGGAEHNIPVVVSKISKEQRAELSGLLFIGDAILQINGINVRKCRHEEVVQVLRNAGEEVTLTVSFLKRAPAFLKLP
B3: GST-KIAA0316 PDZ domain 1 (protein)
chain: MSPILGYWKIKGLVQPTRLLLEYLEEKYEEHLYERDEGDKWRNKKFELGLEFPNLPYYIDGDVKLTQSMAIIRYIADKHNMLGGCPKERAEISMLEGAVLDIRYGVSRIAYSKDFETLKVDFLSKLPEMLKMFEDRLCHKTYLNGDHVTHPDFMLYDALDVVLYMDPMCLDAFPKLVCFKKRIEAIPQIDKYLKSSKYIAWPLQGWQATFGGGDHPPKSDLIEGRIPPAPRKVEMRRDPVLGFGFVAGSEKPVVVRSVTPGGPSEGKLIPGDQIVMINDEPVSAAPRERVIDLVRSCKESILLTVIQPYPSPK
B4: GST-ZO-1 PDZ domain 1 (protein)
chain: MSPILGYWKIKGLVQPTRLLLEYLEEKYEEHLYERDEGDKWRNKKFELGLEFPNLPYYIDGDVKLTQSMAIIRYIADKHNMLGGCPKERAEISMLEGAVLDIRYGVSRIAYSKDFETLKVDFLSKLPEMLKMFEDRLCHKTYLNGDHVTHPDFMLYDALDVVLYMDPMCLDAFPKLVCFKKRIEAIPQIDKYLKSSKYIAWPLQGWQATFGGGDHPPKSDLIEGRIWEQHTVTLHRAPGFGFGIAISGGRDNPHFQSGETSIVISDVLKGGPAEGQLQENDRVAMVNGVSMDNVEHAFAVQQLRKSGKNAKITIRRKKKVQIPNSS
B5: GST-Shank 1 PDZ domain 1 (protein)
chain: MSPILGYWKIKGLVQPTRLLLEYLEEKYEEHLYERDEGDKWRNKKFELGLEFPNLPYYIDGDVKLTQSMAIIRYIADKHNMLGGCPKERAEISMLEGAVLDIRYGVSRIAYSKDFETLKVDFLSKLPEMLKMFEDRLCHKTYLNGDHVTHPDFMLYDALDVVLYMDPMCLDAFPKLVCFKKRIEAIPQIDKYLKSSKYIAWPLQGWQATFGGGDHPPKSDLIEGREEKTVVLQKKDNEGFGFVLRGAKADTPIEEFTPTPAFPALQYLESVDEGGVAWQAGLRTGDFLIEVNNENVVKVGHRQVVNMIRQGGNHLVLKVVTVTRNLDPDDTARKKA
B6: GST-KIAA0147 PDZ domain 4 (protein)
chain: MSPILGYWKIKGLVQPTRLLLEYLEEKYEEHLYERDEGDKWRNKKFELGLEFPNLPYYIDGDVKLTQSMAIIRYIADKHNMLGGCPKERAEISMLEGAVLDIRYGVSRIAYSKDFETLKVDFLSKLPEMLKMFEDRLCHKTYLNGDHVTHPDFMLYDALDVVLYMDPMCLDAFPKLVCFKKRIEAIPQIDKYLKSSKYIAWPLQGWQATFGGGDHPPKSDLIEGRRELCIQKAPGERLGISIRGGARGHAGNPRDPTDEGIFISKVSPTGAAGRDGRLRVGLRLLEVNQQSLLGLTHGEAVQLLRSVGDTLTVLVCDGFEASTDAALEVS
B7: GST-novel PDZ gene PDZ domain 1 (protein)
chain: MSPILGYWKIKGLVQPTRLLLEYLEEKYEEHLYERDEGDKWRNKKFELGLEFPNLPYYIDGDVKLTQSMAIIRYIADKHNMLGGCPKERAEISMLEGAVLDIRYGVSRIAYSKDFETLKVDFLSKLPEMLKMFEDRLCHKTYLNGDHVTHPDFMLYDALDVVLYMDPMCLDAFPKLVCFKKRIEAIPQIDKYLKSSKYIAWPLQGWQATFGGGDHPPKSDLIEGRQANSDESDIIHSVRVEKSPAGRLGFSVRGGSEHGLGIFVSKVEEGSSAERAGLCVGDKITEVNGLSLESTTMGSAVKVLTSSSRLHMMVRRMGRVPGIKFSKEKNSS
B8: GST-PSD95 PDZ domain 2 (protein)
chain: MSPILGYWKIKGLVQPTRLLLEYLEEKYEEHLYERDEGDKWRNKKFELGLEFPNLPYYIDGDVKLTQSMAIIRYIADKHNMLGGCPKERAEISMLEGAVLDIRYGVSRIAYSKDFETLKVDFLSKLPEMLKMFEDRLCHKTYLNGDHVTHPDFMLYDALDVVLYMDPMCLDAFPKLVCFKKRIEAIPQIDKYLKSSKYIAWPLQGWQATFGGGDHPPKSDLIEGRHVMRRKPPAEKVMEIKLIKGPKGLGFSIAGGVGNQHIPGDNSIYVTKIIEGGAAHKDGRLQIGDKILAVNSVGLEDVMHEDAVAALKNTYDVVYLKVAKPSNAYL
B9: GST-TIP1 PDZ domain 1 (protein)
chain: MSPILGYWKIKGLVQPTRLLLEYLEEKYEEHLYERDEGDKWRNKKFELGLEFPNLPYYIDGDVKLTQSMAIIRYIADKHNMLGGCPKERAEISMLEGAVLDIRYGVSRIAYSKDFETLKVDFLSKLPEMLKMFEDRLCHKTYLNGDHVTHPDFMLYDALDVVLYMDPMCLDAFPKLVCFKKRIEAIPQIDKYLKSSKYIAWPLQGWQATFGGGDHPPKSDLIEGRQRVEIHKLRQGENLILGFSIGGGIDQDPSQNPFSEDKTDKGIYVTRVSEGGPAEIAGLQIGDKIMQVNGWDMTMVTHDQARKRLTKRSEEVVRLLVTRQSLQK
B10: GST-SAST1 PDZ domain, Q9Y2H9 963-1055 (protein)
chain: MSPILGYWKIKGLVQPTRLLLEYLEEKYEEHLYERDEGDKWRNKKFELGLEFPNLPYYIDGDVKLTQSMAIIRYIADKHNMLGGCPKERAEISMLEGAVLDIRYGVSRIAYSKDFETLKVDFLSKLPEMLKMFEDRLCHKTYLNGDHVTHPDFMLYDALDVVLYMDPMCLDAFPKLVCFKKRIEAIPQIDKYLKSSKYIAWPLQGWQATFGGGDHPPKSDLIEGRGLRSPITIQRSGKKYGFTLRAIRVYMGDTDVYSVHHIVWHVEEGGPAQEAGLCAGDLITHVNGEPVHGMVHPEVVELILKSGNKVAVTTTPFE
B11: GST-VARTUL PDZ domain, Q14160 727-822 (protein)
chain: MSPILGYWKIKGLVQPTRLLLEYLEEKYEEHLYERDEGDKWRNKKFELGLEFPNLPYYIDGDVKLTQSMAIIRYIADKHNMLGGCPKERAEISMLEGAVLDIRYGVSRIAYSKDFETLKVDFLSKLPEMLKMFEDRLCHKTYLNGDHVTHPDFMLYDALDVVLYMDPMCLDAFPKLVCFKKRIEAIPQIDKYLKSSKYIAWPLQGWQATFGGGDHPPKSDLIEGRLTLTILRQTGGLGISIAGGKGSTPYKGDDEGIFISRVSEEGPAARAGVRVGDKLLEVNGVALQGAEHHEAVEALRGAGTAVQMRVWRERMVEPENA

Target: T1, HPV16 E6 C-terminal PDZ ligand (PL) peptide, biotinylated (human papillomavirus type 16)
Experiment: G assay ELISA; immobilised GST-PDZ, biotin-peptide 10 uM

Binder	Ave OD	OD S/N (ratio vs GST only)
B1	0.342 A450 nm	2.11
B2	0.358 A450 nm	2
B3	0.343 A450 nm	2.34
B4	0.412 A450 nm	1.83
B5	0.385 A450 nm	1.71
B6	0.38 A450 nm	2.34

Target: HPV E6 #16 PDZ ligand peptide (C-terminal peptide of the E6 protein of HPV 16) (HPV 16)
Experiment: G assay ELISA, immobilised GST-PDZ, biotin peptide 10 uM

Binder	Ave OD	OD S/N (ratio to GST-only well)
B7	0.545 A450 nm	1.89

Target: HPV E6 #16 PDZ ligand peptide (C-terminal peptide of the E6 protein of HPV 16) (HPV 16)
Experiment: as above
Remark: another data set of the same source

Binder	Ave OD	OD S/N (ratio to GST-only well)
B8	2.7 A450 nm and 1.31 A450 nm	12.2 and 12.5
B9		8.24 and 5.67
B1	0.622 A450 nm	2.56
B2		3.08
B3		2.56
B4	0.521 A450 nm	2.83
B5		2.53
B6	0.464 A450 nm	2.17

Target: T1, HPV16 E6 C-terminal PDZ ligand (PL) …
Experiment: Matrix/G assay ELISA; E6 peptide titrated on GST-PDZ

Binder	EC50
B8	6800 nM
B10	580 nM
B11	940 nM

Target: T1, HPV16 E6 C-terminal PDZ ligand (PL) …
Experiment: G assay ELISA; E6 PL peptide titrated on constant GST-PDZ

Binder	EC50
B8	6800 nM
B9	750 nM
B10	580 nM
B11	940 nM
